Tested on: L. infantum axenic amastigotes
Assay: Antileishmanial activity on axenic amastigotes (luciferase assay)
Format: cell-based, L. infantum strain MHOM/MA/67/ITMAP-263
Conditions: Selectivity Index, J774A1 CC50 versus axenic amastigote IC50

SMILES: C[C@@H]1[C@H](O)[C@@H](C)/C=C/C=C/C=C/C=C/C=C/C=C/C=C/[C@H](O[C@@H]2O[C@H](C)[C@@H](O)[C@H](N)[C@@H]2O)C[C@@H]2O[C@](O)(C[C@@H](O)C[C@@H](O)[C@H](O)CC[C@@H](O)C[C@@H](O)CC(=O)O[C@H]1C)C[C@H](O)[C@H]2C(=O)O [Amphotericin B, reference compound]
- SI Amastigotes: 64.33

SMILES: C[C@H]1[C@H](C)CC[C@]2(C(=O)O)CC[C@]3(C)C(=CC[C@@H]4[C@@]5(C)C[C@@H](O)[C@H](O)C(C)(C)[C@@H]5CC[C@]43C)[C@H]12 [Corosolic acid (1), Corosolic acid (2α-hydroxyursolic acid)]
- SI Amastigotes: 5.71
- SI Amastigotes (listed as corosolic acid): above five

SMILES: CC1CCC2(C(=O)O)CCC3(C)C(=CCC4C5(C)CC(O)C(OC(=O)/C=C/c6ccc(O)cc6)C(C)(C)C5CCC43C)C2C1C (centres unmarked) [Jacoumaric acid (2), Jacoumaric acid]
- SI Amastigotes: 9.76
- SI Amastigotes (listed as jacoumaric acid): above five

— paper PMC6943623, “Antileishmanial Compounds Isolated from Psidium Guajava L. Using a Metabolomic Approach” (Molecules, 2019)
